Assay results reported in article PMC9774897 (Antibiotics, 2022).
≈ marks a conversion by molar mass, not a printed value. Non-standard residues stand in square brackets, D forms with d. Residues, ends and D or L forms follow the SMILES beside them.

Legend:
MDR M. tuberculosis [1] = system: MDR M. tuberculosis
MDR M. tuberculosis [2] = system: MDR M. tuberculosis; remark: listed apart in the source
M. bovis [3] = system: M. bovis
M. tuberculosis H37Ra [4] = system: M. tuberculosis H37Ra
M. bovis [5] = system: M. bovis; remark: listed apart in the source
M. tuberculosis H37Rv [6] = system: M. tuberculosis H37Rv
M. tuberculosis H37Rv [7] = system: M. tuberculosis H37Rv; remark: listed apart in the source
M. tuberculosis H37Ra [8] = system: M. tuberculosis H37Ra; remark: listed apart in the source

CC(C)[C@@H](NC(=O)[C@@H](CO)NC(=O)[C@@H](CCCNC(=N)N)NC(=O)[C@@H](CCCNC(=N)N)NC(=O)[C@@H](CCCNC(=N)N)NC(=O)[C@@H](CCCNC(=N)N)NC(=O)CN)C(=O)N[C@H](CCC(N)=O)C(=O)N[C@H](Cc1c[nH]c2ccccc12)C(=O)N[C@H](CS)C(=O)N[C@H](C)C(=O)O [D-hLF 1-11] (H-G[dR][dR][dR][dR][dS][dV][dQ][dW][dC][dA]-OH; N-terminus and C-terminus assumed)
MIC, REMA (MDR M. tuberculosis [1]): 100 µg/mL (≈ 72.7 µM)
MIC, MODS Assay (MDR M. tuberculosis [2]): 200 µg/mL (≈ 145 µM)
MIC, MODS Assay (M. bovis [3]): >200 µg/mL
MIC, REMA (M. tuberculosis H37Ra [4]): 100 µg/mL (≈ 72.7 µM)
MIC, REMA (M. bovis [5]): 100 µg/mL (≈ 72.7 µM)
MIC, REMA (M. tuberculosis H37Rv [6]): 100 µg/mL (≈ 72.7 µM)
MIC, MODS Assay (M. tuberculosis H37Rv [7]): 100 µg/mL (≈ 72.7 µM)
MIC, MODS Assay (M. tuberculosis H37Ra [8]): 100 µg/mL (≈ 72.7 µM)
